The test system of the assay is HepG2. The assay is described as follows: cells. Conditions: Homo sapiens.

Where two headings read alike, the source gives them in different places.

For the compound `NC(=O)c1sc(N2CCOCC2)cc1OCCc1ccc(OC(F)(F)F)cc1` [Compound 37, 5-Morpholino-3-[2-[4-(trifluoromethoxy)phenyl]ethoxy]thiophene-2-carboxamide], the IC50 (as a rule, the concentration at which inhibition is half-maximal) is greater than 100 µM (HepG2, read-out: HepG2-Gal IC50) and greater than 100 µM (HepG2, read-out: HepG2-Glu IC50).

(Values after paper PMC6089501 (Journal of Medicinal Chemistry, 2018).)
